Pooled drug test results. Numbers come from NIAID ChemDB, via PubChem.

Shared fields: whole-cell or culture tests; species: Vesicular stomatitis virus; method: cytopathic effect; endpoint: EC50

Rows are shuffled and stem from different studies. ECn: concentration that inhibits the pathogen or its effect by n%.

structure	cells	value
Nc1ncnc2c1c(Br)cn2[C@@H]1O[C@H](CO)[C@@H](O)[C@H]1O	PRK	0.07 µg/mL
Nc1ncnc2c1ncn2[C@@H]1O[C@H](C#CBr)[C@@H](O)[C@H]1O	HeLa	45 µM
Nc1nccc2c1ncn2[C@@H]1C[C@H](CO)[C@@H](O)[C@H]1O	PRK	0.2 µg/mL
CCOC(=O)C(CCSC[C@H]1O[C@@H](n2ccc3c(N)ncnc32)[C@H](O)[C@@H]1O)NC(=O)COC	PRK/E6SM	70 µg/mL
Nc1ccn([C@@H]2C[C@H](CO)[C@@H](O)[C@H]2O)c(=O)n1	HEP-2	200 µg/mL
NC(=O)c1ccnc([C@@H]2O[C@H](CO)[C@@H](O)[C@H]2O)c1	PRK	>400 µg/mL
OCCOC(CCO)n1cnc2cc(Cl)c(Cl)cc21	HeLa	>200 µg/mL
Nc1nc(Cl)c2ncn(C[C@H]3CC[C@@H](CO)C3)c2n1	E6SM	>1 µg/mL
OCCOC(CO)n1cnc2cc(Cl)c(Cl)cc21	HeLa	>200 µg/mL
Nc1ncnc2c1ncn2C[C@H](O)CO	HeLa	>400 µg/mL
Nc1nccc2c1ncn2[C@@H]1C=C(CO)[C@@H](O)[C@H]1O	PRK	0.07 µg/mL
CCCOC(=O)C(CCSC[C@H]1O[C@@H](n2ccc3c(N)ncnc32)[C@H](O)[C@@H]1O)NC(=O)C(F)(F)F	HeLa	20 µg/mL
Nc1ncnc2c1ncn2C[C@H](O)CO	PRK	10 µg/mL
Nc1nc2c(nnn2C[C@H]2CC[C@@H](CO)C2)c(=O)[nH]1	E6SM	>200 µg/mL
O[C@@H]1[C@@H](OCc2ccccc2)[C@@H](COCc2ccccc2)O[C@H]1n1cnc2cc(Cl)c(Cl)cc21	HeLa	>10 µg/mL
Nc1nc2c(ncn2C[C@H]2CC[C@@H](CO)C2)c(=O)[nH]1	HeLa	>200 µg/mL
Nc1nccc2c1ncn2[C@@H]1C[C@H](CO)[C@@H](O)[C@H]1O	HeLa	4 µg/mL
CC(C)[Si]1(C(C)C)OC[C@H]2O[C@@H](n3cnc4cc(Cl)c(Cl)cc43)[C@H](O)[C@H]2O[Si](C(C)C)(C(C)C)O1	HeLa	>10 µg/mL
Nc1ncnc2c1ncn2[C@@H]1O[C@H](C#CCl)[C@@H](O)[C@H]1O	E6SM	70 µM
Nc1nccc2c1ncn2[C@@H]1C[C@H](CO)[C@@H](O)[C@H]1O	PRK	2 µg/mL
O=[N+]([O-])c1cc(Cl)c(Cl)cc1[N+](=O)[O-]	HeLa	>4 µg/mL

A second listing of 3 rows from above:

| structure | cells | value |
|---|---|---|
| O[C@@H]1[C@@H](OCc2ccccc2)[C@@H](COCc2ccccc2)O[C@H]1n1cnc2cc(Cl)c(Cl)cc21 | HeLa | >10 µg/mL |
| NC(=O)c1ccnc([C@@H]2O[C@H](CO)[C@@H](O)[C@H]2O)c1 | PRK | >400 µg/mL |
| Nc1nccc2c1ncn2[C@@H]1C[C@H](CO)[C@@H](O)[C@H]1O | PRK | 2 µg/mL |